Tested on: Primary normal human lung fibroblasts (NHLFs)
Assay: Drug cytotoxicity assay (MTT)
Conditions: NHLF IC50 vs P. falciparum IC50

CCNC(=O)c1noc(-c2cc(C(C)C)c(O)cc2O)c1-c1ccc(CN2CCOCC2)cc1 [NVP-AUY922]
difference between the parasite and host IC50s: > 130 fold

From publication PMC5518105, “Identification and characterization of the antiplasmodial activity of Hsp90 inhibitors” (Malaria Journal, 2017)
